{
  "source": "patent US20170158997A1",
  "key": {"dog hepatocytes": {"system": "dog hepatocytes", "details": "read-out: IC50 values of cell viability, static plate cultures"}},
  "data": [
    {"substance": "aflatoxin B1", "values": [
      {"measurement": "IC50", "setting": "dog hepatocytes", "value": 10, "unit": "nM"},
      {"measurement": "IC50", "setting": "human hepatocytes", "value": 520, "unit": "nM"}
    ]}
  ]
}
